# Test system: L. mexicana strain MNY/BZ/62/M379 promastigotes
# Assay: Alamar Blue (resazurin) assay, L. mexicana promastigotes
Compound,activity against Leishmania promastigotes / L. mexicana (in words),"EC50 (Leishmania mexicana, read-out: EC50 against Leishmania mexicana)",fold less activity than compound 1 against L. mexicana (relative to compound 1)
"COc1cc(O)c(C(=O)/C=C/c2ccccc2)c(OC)c1 [Compound 1, 2′,4′-dimethoxy-6′-hydroxychalcone]",reasonable activity,5.2 µg/mL,–
"COc1cc(O)c(OC)c(O)c1C(=O)/C=C/c1ccccc1 [Compound 2, 2′,5′-dimethoxy-4′,6′-dihydroxychalcone]",–,–,~5 fold
"COc1cc(OC)c2c(c1)OC(c1ccccc1)CC2=O (centres unmarked) [Compound 3, 5,7-dimethoxyflavanone]",poor,–,–
"COc1cc(O)c(OC)c2c1C(=O)CC(c1ccccc1)O2 (centres unmarked) [Compound 4, 5,8-dimethoxy-7-hydroxyflavanone]",poor,–,–
